Pooled drug test results. Numbers come from NIAID ChemDB, via PubChem.

Common to all: growth or infection tests; organism: Varicella zoster virus; read by: plaque count; measure: EC50

Neighbouring rows are from separate reports.

compound | cell line | strain or isolate | result
Nc1nc2c(ncn2[C@@H]2C=C[C@H](CO)CC2)c(=O)[nH]1 | HEL | YS/R (TK-) | 2.8 µg/mL
Cc1cccc2c1OP(=O)(OC[C@H]1O[C@@H](n3cc(/C=C/Br)c(=O)[nH]c3=O)C[C@@H]1OC(=O)[C@@H](N)Cc1ccccc1)OC2 | HELF | OKA | 0.031 µg/mL
Nc1nc2c(ncn2CCC(CO)CO)c(=O)[nH]1 | HEL | YS | 3.3 µM
Nc1nc(Cl)c2ncn(C[C@H]3CC[C@@H](CO)C3)c2n1 | HEL | OKA | >20 µg/mL
Cc1cn([C@@H]2O[C@H](CO)[C@@H](O)[C@@H]2O)c(=O)[nH]c1=O | HEL | YS/R (TK-) | 19.8 µM
Nc1nc2c(nnn2C[C@H]2CC[C@@H](CO)C2)c(=O)[nH]1 | HEL | YS | >200 µg/mL
Nc1ncnc2c1ncn2[C@@H]1O[C@H](CO)[C@H]1CO | HEL | 07/1 (TK-) | 3.9 µM
Nc1nc(Cl)c2nnn(C[C@H]3CC[C@@H](CO)C3)c2n1 | HEL | YS/R (TK-) | >200 µg/mL
COC(=O)[C@H](C)NP(=O)(OC[C@H]1C/C1=C/n1cnc2c(=O)[nH]c(N)nc21)Oc1ccccc1 | HFF |  | 8.1 µM
O=c1[nH]c(=O)n([C@H]2C[C@H](O)[C@@H](CO)S2)cc1/C=C/Br | HEL | YS | 0.024 µM
Nc1nc(N)c2ncn(CCOCP(=O)(O)O)c2n1 | HEL | PMEA-resistant | 12.8 µg/mL
Nc1nc(N)c2nnn(C[C@H]3CC[C@@H](CO)C3)c2n1 | HEL | OKA | >50 µg/mL
Nc1nc2c(ncn2CCC(CO)CO)c(=O)[nH]1 | HEL | PFA-resistant/B | 1.69 µg/mL
O=c1[nH]c(=O)n([C@H]2C[C@H](O)[C@@H](COP3(=O)OCc4cc(-c5ccccc5)ccc4O3)O2)cc1/C=C/Br | HELF | OKA | 0.031 µg/mL
Nc1ncnc2c1ncn2C[C@H]1COP(=O)(O)CO1 | HEL | 13 isolates | 0.34 µM
O=c1[nH]c(=O)n([C@H]2C[C@H](O)[C@@H](COP3(=O)OCc4ccccc4O3)O2)cc1/C=C/Br | HELF | OKA | 0.044 µg/mL
O=C(O)P(=O)(O)O | HEL | BVDU-resistant | 14.8 µg/mL
Cc1cccc2c1OP(=O)(OC[C@H]1O[C@@H](n3cc(/C=C/Br)c(=O)[nH]c3=O)C[C@@H]1OC(=O)C(C)C)OC2 | HELF | OKA | 0.017 µg/mL
Nc1nc2c(ncn2[C@@H]2O[C@H](CO)[C@H]2CO)c(=O)[nH]1 | HEL | YS/R (TK-) | 1.8 µM
Nc1nc(N)c2ncn(C[C@H]3CC[C@@H](CO)C3)c2n1 | HEL | YS | >50 µg/mL
COC(=O)[C@H](C)NP(=O)(OCC1C/C1=C/n1cnc2c(N)ncnc21)Oc1ccccc1 | HFF |  | 7.6 µM
Nc1ncnc2c1ncn2[C@@H]1O[C@H](CO)[C@@H](O)[C@@H]1O | HEL | YS (TK+) | 7.9 µM
O=c1[nH]c(=O)n([C@H]2C[C@H](O)[C@@H](COP3(=O)OCc4cc5ccccc5cc4O3)O2)cc1/C=C/Br | HELF | OKA | 0.008 µg/mL
Nc1nc2c(ncn2COC(CO)CO)c(=O)[nH]1 | HEL | PCV-resistant/A | 0.098 µg/mL
Nc1nc2c(ncn2COCCO)c(=O)[nH]1 | HEL | YS | 4 µM
Nc1ccn(C[C@H]2COP(=O)(O)CO2)c(=O)n1 | HEL | 13 isolates | 1.42 µM
O=c1[nH]c(=O)n([C@@H]2O[C@H](CO)[C@@H](O)[C@@H]2O)cc1/C=C/Br | HEL | YS | 0.002 µM
Nc1nccc2c1ncn2C[C@@H](CO)OCP(=O)(O)O | HEL | 07/1 (TK-) | 0.12 µM
COC(=O)[C@H](C)NP(=O)(OC[C@H]1C/C1=C/n1cnc2c(OC)nc(N)nc21)Oc1ccccc1 | HFF |  | 0.12 µM
Nc1nc2c(ncn2[C@H]2C=C[C@@H](CO)CC2)c(=O)[nH]1 | HEL | 07/1 (TK-) | 5.8 µg/mL

Blank or dashed fields: not listed here. ECn: concentration that inhibits the pathogen or its effect by n%.